Pooled drug test results. Numbers come from NIAID ChemDB, via PubChem.

Common to all: tests in culture

Percent inhibition refers to the dose given; in toxicity tests it is the harm to the cells. Neighbouring rows are from separate reports. ECn: concentration that inhibits the pathogen or its effect by n%.

C[C@H]1O[C@H](n2c(Br)nc3cc(Cl)c(Cl)cc32)[C@@H](O)[C@H]1O ; read by: hybridisation ; organism: Human herpesvirus 6 ; read-out: EC50 ; strain or isolate: 6B ; cells: MOLT-3 ; value: 55 µM
N#CC1=C(c2ccccc2)Nc2sccc2S1(=O)=O ; read by: cytopathic effect ; organism: Human herpesvirus 6 ; read-out: EC50 ; strain or isolate: Z29 (TYPE 6B) ; cells: MOLT-3 ; value: >20 µg/mL
Nc1ccn([C@@H]2C[C@H](CO)[C@@H](O)[C@H]2O)c(=O)n1 ; read by: cytopathic effect ; organism: Human coronavirus ; read-out: EC50 ; strain or isolate: Strain 229E 229E ; cells: WI-38 ; value: 7 µg/mL
O=c1[nH]c(=O)n([C@H]2C[C@H](O)[C@@H](CO)O2)cc1/C=C/Br ; read by: syncytia ; organism: Human herpesvirus 7 ; read-out: EC50 ; cells: CD4+ T lymphocytes ; value: >90 µM
OC[C@H]1O[C@@H](n2c(Br)nc3cc(Cl)c(Cl)cc32)[C@H](O)[C@@H]1O ; read by: plaque count ; organism: Human cytomegalovirus ; read-out: EC50 ; strain or isolate: C4 (BDCRB-resistant) ; cells: HFF ; value: 33 µM
CC(C)Nc1nc2cc(Cl)c(Cl)cc2n1[C@H]1O[C@@H](CO)[C@H](O)[C@@H]1O ; read by: hybridisation ; organism: Human cytomegalovirus ; read-out: EC50 ; strain or isolate: C8501 ; cells: MRC-5 ; value: 0.1 µM
Nc1nc2c(ncn2COCCO)c(=O)[nH]1 ; read by: plaque count ; organism: Human cytomegalovirus ; read-out: inhibition ; tested at: 20 µM ; cells: HEL ; value: 35%
Nc1nc2c(ncn2COC(CO)CO)c(=O)[nH]1 ; read by: plaque count ; organism: Human cytomegalovirus ; read-out: EC90 ; strain or isolate: VR5611 (ganciclovir-susceptible) ; value: 6 µM
Cn1cc(C(=O)NCc2ccc(Cl)cc2)c(=O)c2cc(CN3CCOCC3)ccc21 ; read by: plaque count ; organism: Human cytomegalovirus ; read-out: inhibition ; strain or isolate: GR ; tested at: 5.2 µM ; cells: HFF ; value: 90%
O=C(O)C1=CC(=C(c2ccc(O)c(C(=O)O)c2)c2ccc(O)c(C(=O)O)c2)C=CC1=O ; read by: syncytia ; organism: Human herpesvirus 7 ; read-out: EC50 ; cells: SupT1 ; value: 2.8 µM
OC[C@H]1O[C@@H](n2c(Br)nc3cc(Cl)c(Cl)cc32)[C@H](O)[C@@H]1O ; read by: virus yield ; organism: Human cytomegalovirus ; read-out: EC95 ; strain or isolate: Recombinant C4 (D341E) ; value: 4.8 µM
N#CC1C(c2ccc(Cl)cc2)Nc2c(ccn2Cc2ccccc2)S1(=O)=O ; read by: cytopathic effect ; organism: Human herpesvirus 6 ; read-out: EC50 ; strain or isolate: GS (TYPE 6A) ; cells: HSB-2 ; value: >20 µg/mL
Nc1nc2c(ncn2[C@@H]2C[C@H](CO)[C@H]2CO)c(=O)[nH]1 ; read by: syncytia ; organism: Human herpesvirus 7 ; read-out: EC50 ; cells: CD4+ T lymphocytes ; value: 4.5 µM
CC(C)Nc1nc2cc(Cl)c(Cl)cc2n1[C@H]1O[C@@H](CO)[C@H](O)[C@@H]1O ; read by: virus yield ; organism: Human cytomegalovirus ; read-out: EC50 ; strain or isolate: AD169 ; cells: HFF ; value: <1.1 µM
Nc1nc2c(ncn2CCC(CO)CO)c(=O)[nH]1 ; read by: antigen ; organism: Human herpesvirus 7 ; read-out: inhibition ; strain or isolate: SB ; tested at: 100 µM ; cells: HUMAN CORD BLOOD CELLS ; value: 31%
Nc1ncnc2c1ncn2[C@@H]1O[C@H](CO)[C@@H](O)[C@@H]1O ; read by: plaque count ; organism: Human cytomegalovirus ; read-out: inhibition ; tested at: 10 µM ; cells: HEL ; value: 35.3%
O=C(NCc1ccc(Cl)cc1)c1c[nH]c2c(F)cccc2c1=O ; read by: plaque count ; organism: Human cytomegalovirus ; read-out: EC50 ; strain or isolate: DAVIS ; value: 6.7 µM
C=C1[C@H](CO)[C@@H](O)C[C@@H]1n1cnc2c(=O)[nH]c(N)nc21 ; read by: plaque count ; organism: Human papillomavirus ; read-out: EC50 ; cells: WI-38 ; value: 3 µM
CC(=O)N[C@@H](CC(C)C)C(=O)N[C@@H](CC(C)C)C(=O)N[C@H](C=O)CCCN=C(N)N ; read by: plaque count ; organism: Human coronavirus ; read-out: inhibition ; strain or isolate: 229E 229E ; tested at: 2 µg/mL ; cells: MRC-C ; value: 100%
Nc1ccn(C[C@@H](CO)OCP(=O)(O)O)c(=O)n1 ; organism: Human herpesvirus 6 ; read-out: EC50 ; strain or isolate: TYPE 6A ; cells: MOLT-3 ; value: 2.9 µg/mL
OC[C@H]1CC(n2c(NC3CC3)nc3cc(Cl)c(Cl)cc32)[C@H](O)[C@@H]1O ; read by: hybridisation ; organism: Human herpesvirus 6 ; read-out: EC50 ; strain or isolate: 6a ; cells: HSB-2 ; value: >20 µM
CC(C)Nc1nc2cc(Cl)c(Cl)cc2n1[C@@H]1O[C@H](CO)[C@@H](O)[C@H]1O ; read by: virus yield ; organism: Human cytomegalovirus ; read-out: EC50 ; strain or isolate: AD169 ; cells: MRC-5 ; value: 1.3 µM
OC[C@H]1CC(n2c(Br)nc3cc(Cl)c(Cl)cc32)[C@H](O)[C@@H]1O ; read by: hybridisation ; organism: Human herpesvirus 6 ; read-out: EC50 ; strain or isolate: 6a ; cells: HSB-2 ; value: 5.5 µM
Clc1ccc(Nc2ncnc3ccccc23)cc1Cl ; read by: plaque count ; organism: Human cytomegalovirus ; read-out: inhibition ; strain or isolate: AD169-GFP ; tested at: 1.1 µM ; cells: HFF ; value: 25%
N#CC1C(c2ccc(Cl)cc2)Nc2ccccc2S1(=O)=O ; read by: cytopathic effect ; organism: Human herpesvirus 6 ; read-out: EC50 ; strain or isolate: GS (TYPE 6A) ; cells: HSB-2 ; value: 0.4 µg/mL
NC1=NC2C(C=CN2CC(CO)CCO)C(=O)N1 ; read by: syncytia ; organism: Human herpesvirus 7 ; read-out: EC50 ; cells: CD4+ T lymphocytes ; value: >230 µM
OC[C@@H]1O[C@@H](n2c(Br)nc3cc(Cl)c(Cl)cc32)[C@H](O)[C@H]1O ; read by: hybridisation ; organism: Human herpesvirus 6 ; read-out: EC50 ; strain or isolate: 6B ; cells: MOLT-3 ; value: 9.7 µM
Nc1nc2c(ncn2COC(CO)CO)c(=O)[nH]1 ; read by: syncytia ; organism: Human herpesvirus 7 ; read-out: EC50 ; cells: SupT1 ; value: >50 µM
NC(=O)c1c(Cl)c(-c2cccnc2)n2c1CCCC2 ; read by: hybridisation ; organism: Human herpesvirus 6 ; read-out: EC50 ; strain or isolate: TYPE B (Z29) ; cells: SupT1 ; value: 0.058 µM

For reference, 2 entries again:

{"smiles": "O=C(NCc1ccc(Cl)cc1)c1c[nH]c2c(F)cccc2c1=O", "read by": "plaque count", "organism": "Human cytomegalovirus", "read-out": "EC50", "strain or isolate": "DAVIS", "value": "6.7 µM"}
{"smiles": "Nc1ccn(C[C@@H](CO)OCP(=O)(O)O)c(=O)n1", "organism": "Human herpesvirus 6", "read-out": "EC50", "strain or isolate": "TYPE 6A", "cells": "MOLT-3", "value": "2.9 µg/mL"}